Pooled drug test results. Numbers come from NIAID ChemDB, via PubChem.

Shared fields: target-level tests

ICn: concentration for n% inhibition. Percent inhibition refers to the dose given; in toxicity tests it is the harm to the cells. An empty or dashed field is not shown. Fold resistance has wild type as its base. Neighbouring rows are from separate reports.

structure,agent,read by,dose,changes,read-out,protein,strain or isolate,result
CC(C)[C@H](NC(=O)[C@H](Cc1ccccc1)C[C@H](O)[C@H](Cc1ccccc1)NC(=O)OC(C)(C)C)C(=O)N[C@@H](Cc1ccccc1)C(=O)N1CCOCC1,HIV-2,,,,Ki,Protease,,0.00056 µM
Nc1sc2c(c1C(=O)Nc1ccccc1O)CCCCC2,HIV-1,RNase H / fluorescence,,,IC50,RNase H,,>100 µM
CC(C)(O)C#Cc1ccc(NC(=O)CSc2nnnn2-c2cc(C(C)(C)C)ccc2Cl)c(Cl)c1,HIV-1,PicoGreen / fluorescence,,,IC50,Reverse transcriptase,WT,<1 µM
CCOC(=O)/C=C\n1ncnc1-c1cc(Cl)ccc1N,HIV-1,luciferase,,,IC50,Rev:RRE,,0.04 µM
O=C1[C@H]2O[C@@H](CN1Cc1ccccc1)O[C@H]2C(=O)N1CCC[C@H]1CO,HIV-1,FRET,10 µM,,inhibition,Protease,,0%
CC(=O)NC(C)(C)C#Cc1ccc(NC(=O)CSc2nnnn2-c2ccc(C3CC3)cc2Cl)c(Cl)c1,HIV-1,PicoGreen / fluorescence,,RT-K103 Y181C,IC50,Reverse transcriptase,,<1 µM
CO[C@@H]1[C@H](O)[C@@H](COP(=O)(O)O[C@H]2C[C@H](n3cnc4c(=O)[nH]c(N)nc43)O[C@@H]2CO)O[C@H]1n1cnc2c(=O)[nH]c(N)nc21,HIV-1,RNase H,50 µM,,inhibition,RNase H,,100%
CC[C@@H](C)[C@H](NC(=O)[C@@H]1CCCN1C(=O)[C@@H](O)[C@H](Cc1ccccc1)NC(=O)[C@H](CC(N)=O)NC(=O)CCc1ccccc1)C(N)=O,HIV-1,,5 µM,,inhibition,Protease,,43%
CC(C)(C)c1ccc(-n2nnnc2SCC(=O)Nc2ccc(OCC(=O)NCCO)cc2Cl)c(Cl)c1,HIV-1,PicoGreen / fluorescence,,RT-K103 Y181C,IC50,Reverse transcriptase,,<1 µM
O=C([C@@H]1O[C@@H]2CN(Cc3ccccc3)C(=S)[C@H]1O2)N1CCOCC1,HIV-1,FRET,10 µM,,inhibition,Protease,,0%
CC(C)(C)c1ccc(-n2nnnc2SCC(=O)Nc2ccc(NC(=O)Cc3cccnc3)cc2Cl)c(Cl)c1,HIV-1,PicoGreen / fluorescence,,,IC50,Reverse transcriptase,WT,<1 µM
COC(=O)[C@H](CC(C)C)N1C[C@@H]2O[C@H](C1=O)[C@H](C(=O)N1CCN(C)CC1)O2,HIV-1,FRET,10 µM,,inhibition,Protease,,70%
COC(=O)c1ccc(C(=O)NCc2ccncc2)c(O)c1O,HIV,strand transfer,,,IC50,Integrase,,<0.5 µM
CC(=O)c1ccc(O)c2nc(/C=C/c3cc(O)c(O)c(Cl)c3)ccc12,HIV,3′ processing / gel,,,IC50,Integrase,HXB2,0.53 µM
O=C(CN1CCCC1)Nc1ccc(Cc2ccc(NC(=O)CN3CCCC3)cc2)cc1,HIV,binding,,,IC50,Integrase,,7.29 µM
CC(C)(C#Cc1ccc(NC(=O)CSc2nnnn2-c2cc(C(F)(F)F)ccc2Cl)c(Cl)c1F)C(=O)NCCN1CCCC1,HIV-1,PicoGreen / fluorescence,,,IC50,Reverse transcriptase,WT,<1 µM
CCCCCCC[C@H]1O[C@H]1CO,HIV-2,HPLC,,,IC50,Protease,,>500 µg/mL
Nc1nc2c(ncn2[C@@H]2O[C@H](COCO[C@@H]3[C@H](O)[C@@H](CO)O[C@H]3n3cnc4c(N)ncnc43)[C@@H](O)[C@H]2O)c(=O)[nH]1,HIV-1,RNase H,50 µM,,inhibition,RNase H,,5%
CC(C)(C)NC(=O)[C@H]1N(C(=O)[C@@H](O)[C@H](Cc2ccccc2)NC(=O)[C@H](CC(N)=O)NC(=O)COc2cccc(Nc3ccccc3)c2)CSC1(C)C,HIV-1,,0.05 µM,,inhibition,Protease,,99.1%
O=S(=O)(c1cnc(N2CCC(CCCC3CCN(S(=O)(=O)c4c(Cl)ccc5nonc45)CC3)CC2)c(Br)c1)N1CCCNCC1,HIV-1,fluorescence,,,IC50,gp120 + CD4,,>10 µM
CC(C)(C)c1ccc(-n2nnnc2SCC(=O)Nc2ccc(C(=O)N3CCC(C(=O)O)CC3)cc2Cl)c(Cl)c1,HIV-1,PicoGreen / fluorescence,,RT-K103 Y181C,IC50,Reverse transcriptase,,<1 µM
C[C@@H](CO)NC(=O)[C@@H]1O[C@H]2O[C@@H]1C(=O)N(Cc1ccccc1)[C@@H]2Cc1ccccc1,HIV-1,FRET,1 µM,,inhibition,Protease,,0%
CC(C)(C#Cc1ccc(NC(=O)CSc2nnnn2-c2cc(C(C)(C)C)ccc2Cl)c(Cl)c1)NC(=O)CN=c1ccn(O)cc1,HIV-1,PicoGreen / fluorescence,,,IC50,Reverse transcriptase,WT,<1 µM
NC(=O)C[C@H](NC(=O)OCc1ccccc1)C(=O)N[C@@H](Cc1ccccc1)[C@H](O)C(=O)N1CCC[C@H]1C(=O)NCC1CCCCC1,HIV-1,,5 µM,,inhibition,Protease,,48.1%
Nc1nc2c(ncn2[C@@H]2O[C@H](COP(O)(=S)O[C@H]3C[C@H](n4cnc5c(N)ncnc54)O[C@@H]3CO)[C@@H](O)[C@H]2O)c(=O)[nH]1,HIV-1,RNase H,50 µM,,inhibition,RNase H,,1%
CCCCNC(=O)[C@@H]1O[C@@H]2CN(Cc3ccccc3)C(=O)[C@H]1O2,HIV-1,FRET,10 µM,,inhibition,Protease,,0%
Nc1nc2c(ncn2[C@H]2CO[C@@H](COP(=O)(O)OP(=O)(O)OP(=O)(O)O)O2)c(=O)[nH]1,HIV,radiometric,,RT-L74V,fold resistance,Reverse transcriptase,,1.1
CC(C)(C)c1ccc(-n2nnnc2SCC(=O)Nc2ccc(-c3ccc(OCC(=O)O)c(F)c3)cc2Cl)c(Cl)c1,HIV-1,PicoGreen / fluorescence,,RT-K103 Y181C,IC50,Reverse transcriptase,,<1 µM
COC(=O)c1ccc(C(=O)NCc2ccccc2C(F)(F)F)c(O)c1O,HIV,strand transfer,,,IC50,Integrase,,<0.5 µM
Nc1nc2c(ncn2[C@@H]2O[C@H](COP(=O)(O)O[C@H]3[C@@H](O)[C@H](n4cnc5c(=O)[nH]c(N)nc54)O[C@@H]3CO)[C@@H](O)[C@H]2O)c(=O)[nH]1,HIV-1,RNase H,50 µM,,inhibition,RNase H,,80%
Cc1nc2sc3c(c2c(=O)o1)CCC3,HIV-1,RNase H / fluorescence,,,IC50,RNase H,,1 µM
COc1ccnc2[nH]cc(C(=O)C(=O)N3CCN(C(=O)c4ccccc4)C[C@H]3C)c12,HIV-1,ELISA,,GP120-S440R,fold resistance,gp120,LAI,2
Nc1ncnc2c1ncn2[C@@H]1O[C@H](CO)[C@@H](OP(O)(=S)OC[C@H]2O[C@@H](n3cnc4c(=O)[nH]c(NCc5cccc6ccccc56)nc43)[C@H](O)[C@@H]2O)[C@H]1F,HIV-1,RNase H,50 µM,,inhibition,RNase H,,61%
CCC(N)(C#Cc1ccc(NC(=O)CSc2nnnn2-c2ccc(C3CC3)cc2Cl)c(Cl)c1)CC,HIV-1,PicoGreen / fluorescence,,RT-K103 Y181C,IC50,Reverse transcriptase,,<1 µM
Nc1nc2c(ncn2[C@@H]2O[C@H](COCO[C@@H]3[C@H](O)[C@@H](CO)O[C@H]3n3cnc4c(=O)[nH]c(N)nc43)[C@@H](O)[C@H]2O)c(=O)[nH]1,HIV-1,RNase H,50 µM,,inhibition,RNase H,,80%
CCCCCCC[C@@H]1O[C@@H]1CO,HIV-2,HPLC,,,IC50,Protease,,<500 µg/mL
CC[C@@H](C)[C@H](NC(=O)C1CCCN1C(=O)[C@@H](O)[C@H](Cc1ccccc1)NC(=O)[C@H](CC(C)C)NC(=O)CCc1ccccc1)C(=O)N[C@H](C(N)=O)C(C)C,HIV-1,,5 µM,,inhibition,Protease,,68.7%
CCOC(=O)N1CCN(C(=O)[C@@H]2O[C@]3(c4ccccc4)CN(C(c4ccccc4)c4ccccc4)C(=O)[C@H]2O3)CC1,HIV-1,FRET,10 µM,,inhibition,Protease,,0%
CC(C)CNc1nc(OCCc2ccc([N+](=O)[O-])cc2)c2ncn([C@@H]3O[C@H](COP(O)(=S)O[C@H]4[C@@H](F)[C@H](n5cnc6c(N)ncnc65)O[C@@H]4CO)[C@@H](O)[C@H]3O)c2n1,HIV-1,RNase H,50 µM,,inhibition,RNase H,,3%
CC(C)(C#Cc1ccc(NC(=O)CSc2nnnn2-c2ccc(C3CC3)cc2Cl)c(Cl)c1)NC(=O)Cn1cncn1,HIV-1,PicoGreen / fluorescence,,,IC50,Reverse transcriptase,WT,<1 µM
Nc1ncnc2c1ncn2[C@@H]1O[C@H](CO)[C@@H](OP(=O)(O)OC[C@H]2O[C@@H](n3ccc(=O)[nH]c3=O)[C@H](O)[C@@H]2O)[C@H]1O,HIV-1,RNase H,50 µM,,inhibition,RNase H,,2%
CC(C)(C)c1ccc(-n2nnnc2SCC(=O)Nc2ccc(OCC(=O)NCc3ccco3)cc2Cl)c(Cl)c1,HIV-1,PicoGreen / fluorescence,,RT-K103 Y181C,IC50,Reverse transcriptase,,<1 µM
NC(=O)C[C@H](NC(=O)OCc1ccccc1)C(=O)N[C@@H](Cc1ccccc1)[C@H](O)C(=O)N1CCC[C@H]1C(=O)N1CC1,HIV-1,,5 µM,,inhibition,Protease,,>90%
NC(=O)c1c(NC(=O)c2ccc(Cl)cc2)sc2c1CCCCC2,HIV-1,RNase H / fluorescence,,,IC50,RNase H,,62.7 µM
CC[C@H](C)[C@H](NC(=O)[C@@H](C[C@H](O)[C@H](CC(C)C)NC(=O)[C@H](CC(N)=O)NC(=O)[C@H](CCC(N)=O)NC(=O)[C@H](CO)NC(=O)[C@@H](N)C(C)C)C(C)C)C(=O)N[C@H](C(=O)O)C(C)C,HIV-2,,,,Ki,Protease,,0.009 µM
CC(C)(C)c1ccc(-n2nnnc2SCC(=O)Nc2ccc(OCC(=O)Nc3ccc(N4CCOCC4)cc3)cc2Cl)c(Cl)c1,HIV-1,PicoGreen / fluorescence,,RT-K103 Y181C,IC50,Reverse transcriptase,,<1 µM
COc1ccc(S(=O)(=O)O)cc1N=Nc1c(S(=O)(=O)O)cc2cc(Nc3nc(Nc4ccccc4)nc(Nc4cc(C)c(N=Nc5cc(S(=O)(=O)O)cc6cc(S(=O)(=O)O)cc(O)c56)cc4OC)n3)ccc2c1O,HIV-1,ELISA,,,IC50,gp41,IIIB,0.73 µg/mL
COC(=O)/C=C(/C)c1ccc(NC(=O)CSc2nnnn2-c2ccc(C3CC3)cc2Cl)c(Cl)c1,HIV-1,PicoGreen / fluorescence,,,IC50,Reverse transcriptase,WT,<1 µM
O=C([C@@H]1O[C@H]2O[C@@H]1C(=O)N(Cc1ccccc1)[C@@H]2Cc1ccccc1)N1CCN(CCO)CC1,HIV-1,FRET,10 µM,,inhibition,Protease,,0%
CC(C)(C)c1ccc(-n2nnnc2SCC(=O)Nc2ccc(C#CCN3CCCCC3)cc2Cl)c(Cl)c1,HIV-1,PicoGreen / fluorescence,,,IC50,Reverse transcriptase,WT,<1 µM
O=C([C@@H]1O[C@]2(c3ccccc3)CN(C(c3ccccc3)c3ccccc3)C(=O)[C@H]1O2)N1CCCNCC1,HIV-1,FRET,10 µM,,inhibition,Protease,,0%
Cc1cc(Cl)c(-n2nnnc2SCC(=O)Nc2ccc(C#CC(C)(C)C(=O)O)cc2Cl)cc1C(F)(F)F,HIV-1,PicoGreen / fluorescence,,,IC50,Reverse transcriptase,WT,<1 µM
COCCNC(=O)[C@@H](NC(=O)[C@H](Cc1ccc(OC)c(OC)c1OC)C[C@H](O)[C@H](Cc1ccccc1)NC(=O)OC(C)(C)C)C(C)C,HIV-2,fluorescence,,,IC50,Protease,,0.005 µM
CC(C)(C)c1ccc(-n2nnnc2SCC(=O)Nc2ccc(C(=O)Nc3ccc(O)cc3)cc2Cl)c(Cl)c1,HIV-1,PicoGreen / fluorescence,,RT-K103 Y181C,IC50,Reverse transcriptase,,<1 µM
CC(=O)c1ccc(O)c2nc(/C=C/c3cc(O)c(O)cc3O)ccc12,HIV,3′ processing / gel,,,IC50,Integrase,HXB2,0.225 µM
CC(C)(C)c1ccc(-n2nnnc2SCC(=O)Nc2ccc(S(=O)(=O)Nc3ccccc3)cc2Cl)c(Cl)c1,HIV-1,PicoGreen / fluorescence,,,IC50,Reverse transcriptase,WT,<1 µM
CCOCn1c(Sc2ccccc2)c(CC)c(=O)[nH]c1=O,HIV,nucleotide incorporation,,RT-V60T,fold resistance,Reverse transcriptase,,1.5
CC(C)(C)c1ccc(-n2nnnc2SCC(=O)Nc2ccc(NS(=O)(=O)Cc3ccccc3)cc2Cl)c(Cl)c1,HIV-1,PicoGreen / fluorescence,,,IC50,Reverse transcriptase,WT,<1 µM
COc1ccccc1-c1nc2sc3c(c2c(=O)o1)CCCCC3,HIV-1,RNase H / fluorescence,,,IC50,RNase H,,100 µM
CC(C)(C)c1ccc(-n2nnnc2SCC(=O)Nc2ccc(C(=O)Nc3ccc(CCC(=O)O)cc3)cc2Cl)c(Cl)c1,HIV-1,PicoGreen / fluorescence,,,IC50,Reverse transcriptase,WT,<1 µM
COC(=O)c1ccc2c(=O)n(Cc3ccccc3)c(=O)oc2c1O,HIV,strand transfer,,,IC50,Integrase,,<0.5 µM